Anti-infective test results gathered from many reports (values: NIAID ChemDB through PubChem).

Common to all: tests in culture; species: Mycobacterium tuberculosis

ECn is the concentration giving n% inhibition of infection, replication or growth.

compound | method | mutations | endpoint | tested at | strain or isolate | value
O=C(NN1C(=O)CSC1c1ccccc1F)c1ncc2cc(C(F)(F)F)ccc2n1 | visual reading |  | MIC |  | H37Rv | 3.02 µM
CCCCCCCCCCCCCCCCCCNCc1ccc(O)c(OC)c1 | resazurin |  | MIC90 |  | H37Ra | 75 µM
Cc1cc2nc(CCC3CCCCC3)[nH]c2cc1C | visual reading / absorbance | 4/1 MmpL3 (V285A) | MIC90 |  | H37Rv | 2.9 µM
NNC(=O)c1ccccn1 |  |  | MIC |  | H37Rv (INH-resistant) | 512 µM
CN(/N=C/c1ccccc1O)c1ccc2ccccc2n1 |  |  | MIC |  | H37Ra | 12.5 µM
Cc1cnc(C#N)c(C#N)n1 | BACTEC |  | inhibition | 12.5 µg/mL | H37Rv | 28%
CN(C)CCCN1c2ccccc2Sc2ccc(Cl)cc21 |  |  | MIC |  | 23583 | 10 µg/mL
CCCCCCCCCNCc1ccc(O)c(OC)c1 | resazurin |  | MIC90 |  | H37Ra | 150 µM
CCCCOc1ccc(OCCC)c(NCc2cnc3nc(N)nc(N)c3c2C)c1 |  |  | MIC |  | H37Ra | >64 µg/mL
NNC(=O)c1ccncc1 | visual reading / absorbance | EJMCh6C MmpL3  (G253E) | MIC90 |  | H37Rv | 0.07 µM
CCN(CC)CCNc1ccc(C)c2sc3c(O)cccc3c(=O)c12 | BACTEC |  | MIC bound |  | H37Rv | ≤12.5 µg/mL
NC(=O)c1ccc(CN(C2CC2)S(=O)(=O)c2ccccc2F)cc1 | resazurin / fluorescence | Rifampicin-resistant | MIC |  | Clinical isolate | 5 µM
S=C(Nc1ccccc1)Nc1ccc(-c2nnc(Nc3ccc(Cl)cc3)s2)cc1 |  |  | MIC |  | H37Rv | >6.25 µg/mL
CC1CN(c2cc3c(cc2F)c(=O)c(C(=O)O)cn3-c2ccc(F)cc2F)CCN1 |  |  | MIC50 |  | 64 strains | 1 µg/mL
CC(=O)c1sc(Nc2nnc(-c3ccc(-c4nnc(Nc5nc(C)c(C(C)=O)s5)o4)cc3)o2)nc1C | resazurin |  | MIC bound |  | H37Rv | >6.25 µg/mL
COc1c(O)c2c(c(C)c1C(=O)C=C(C)C)Oc1c(C=O)c(O)c(Cl)c(C)c1C(=O)O2 |  |  | MIC |  |  | 39.7 µg/mL
CC[C@]1(C)C[C@@H](OC(=O)CSC(C)(C)CNC(=O)[C@H](N)CC(C)C)[C@]2(C)[C@H](C)CC[C@]3(CC/C(=N\OC)[C@H]32)[C@@H](C)[C@@H]1O | resazurin |  | MIC100 |  | H37Rv | 5.81 µg/mL
CC(=O)c1ccccc1C1SCC(=O)N1NC(=O)c1ncc2cc(C(F)(F)F)ccc2n1 | visual reading |  | MIC |  | H37Rv | 3.07 µM
CCN(CC)CCN1c2ccc(C)cc2Sc2ccc3ccccc3c21 | BACTEC |  | inhibition | 12.5 µg/mL | H37Rv | 98%
Nc1ccccc1C1SCC(=O)N1NC(=O)c1ncc2cc(C(F)(F)F)ccc2n1 | visual reading |  | MIC |  | H37Rv | 2.17 µM
COc1cc(CNc2ccccc2B2OC(C)(C)C(C)(C)O2)ccc1O | resazurin |  | MIC90 |  | H37Ra | 200 µM
O=c1c(O)c(-c2ccc(-c3oc4ccccc4c(=O)c3O)cc2)oc2ccccc12 | BACTEC |  | inhibition | 12.5 µg/mL | H37Rv | 0%
Cc1ccc(-c2nc3sc(C)nn3c2COCc2cn(-c3ccc(F)cc3)nn2)cc1 | agar |  | MIC |  | H37Rv | 50 µg/mL
Brc1ccc2nc(CCC3CCCCC3)[nH]c2c1 | visual reading / absorbance | 4/3 MmpL3 (V195A) | MIC90 |  | H37Rv | 13 µM
CC(=O)O[C@H]1C[C@@]2(C)[C@@H](C[C@@H](O)[C@H]3[C@@]4(C)CC[C@@H](O)[C@@H](C)[C@@H]4CC[C@@]32C)/C1=C(\CCC=C(C)C)C(=O)O |  |  | MIC50 |  | 64 strains | 8 µg/mL
O=C(CO)Nc1nccs1 |  |  | MIC |  | H37Rv | >100 µg/mL
COc1cc(CNC(=O)CCCC/C=C/C(C)C)ccc1O | resazurin |  | EC50 |  | H37Ra | 110 µM
Ic1ccc2c(c1)N(c1ccccc1)c1cc(Nc3ccc4nc5ccc(I)cc5[n+](-c5ccccc5)c4c3)ccc1N2 |  |  | MIC |  | H37Ra | 12.5 µM
C[C@]1(COc2ccccc2)Cn2cc([N+](=O)[O-])nc2O1 |  |  | MIC |  | H37Rv | 0.06 µg/mL
O=C(O)c1cn(-c2ccc(F)cc2)c2cc(N3CCNCC3)c(F)cc2c1=O |  |  | MIC90 |  | 64 strains | 8 µg/mL
CCCOc1ccc(OCC)c(NCc2cnc3nc(N)nc(N)c3c2C)c1 |  |  | MIC |  | H37Ra | 8 µg/mL
CC(C)=Nn1cnc(C(=N)C#N)c1N | BACTEC |  | MIC bound |  | H37Rv | >12.5 µg/mL
CCCCOc1ccc(OCC)c(NCc2cnc3nc(N)nc(N)c3c2C)c1 |  |  | MIC |  | H37Ra | >64 µg/mL
O=S1(=O)C[C@H](O)[C@H](O)CS1 | BACTEC |  | inhibition | 12.5 µg/mL | H37Rv | 48%
CC1(C)O[C@H]2[C@@H]([C@@H](O)Cn3cnc([N+](=O)[O-])c3)OC[C@H]2O1 |  |  | MIC |  | H37Rv | 12.5 µg/mL
NNC(=O)c1ccncc1 | visual reading |  | MIC |  | H37Rv | 0.05 µg/mL
CC[C@@H](CO)NCCN[C@@H](CC)CO |  |  | MIC |  | H37Rv | 12.3 µg/mL
Cn1c2ccccc2c(=O)c2c(O)cc3c(c21)C=CC(C)(C)O3 | BACTEC |  | inhibition | 12.5 µg/mL | H37Rv | -8%
Oc1cc(Cl)ccc1Oc1ccc(Cl)cc1Cl | visual reading |  | MIC |  | H37Rv | 10 µg/mL
C=C[C@]1(C)C[C@@H](OC(=O)CSC(C)(C)CNC[C@H](N)C(C)C)[C@]2(C)[C@H](C)CC[C@]3(CCC(O)[C@H]32)[C@@H](C)[C@@H]1O | broth dilution |  | MIC100 |  | H37Rv | 6.25 µg/mL
COc1cc(CNc2ccc(B3OC(C)(C)C(C)(C)O3)cc2)ccc1O | resazurin |  | inhibition | 200 µM | H37Ra | <50%
CCCCc1c(O)c(N=NC(=O)C[N+](C)(C)C)c2ccccc2c1O | BACTEC |  | inhibition | 12.5 µg/mL | H37Rv | 66%
COC(=O)/C(=C\c1ccc(Cl)cc1)Oc1cccc(C(=O)OC)c1O | resazurin |  | EC50 |  |  | 203 µM
COc1ccc(C2SCC(=O)N2NC(=O)c2ncc3cc(C(F)(F)F)ccc3n2)c(OC)c1 | visual reading |  | MIC |  | H37Rv | 2.38 µM
O=C1C=C(Nc2cc(Cl)ccc2Cl)c2ccccc2C1=O | resazurin |  | inhibition | 6.25 µg/mL | H37Rv | 60%
COC(=O)/C(=C\c1cccc(Cl)c1)Oc1cccc(C(=O)OC)c1O | resazurin |  | EC50 |  |  | 204 µM
CN(C)c1ccc(C(N)=S)cc1 |  |  | MIC |  | H37Rv (drug-susceptible) | 128 µM
O=C(O)CN1CC(=O)N(c2ccccc2)C1=S | BACTEC |  | inhibition | 12.5 µg/mL | H37Rv | 0%
Nc1ccccc1O.O.O=C(O)C1[O][Sb][O]C1C(=O)O |  |  | MIC |  | H37Ra | 12.5 µM
CC(=O)Nc1ccc(/C=N/NC(N)=S)cc1 |  |  | MIC |  | Aoyama B | 0.1 µg/mL
O=C(NN1C(=O)CSC1c1ccccc1[N+](=O)[O-])c1ncc2cc(C(F)(F)F)ccc2n1 | visual reading |  | MIC |  | H37Rv | 3.08 µM
COC(=O)[C@H]1[C@H]2C[C@@H]3c4[nH]c5cccc(OC)c5c4CCN3C[C@H]2CC[C@H]1O | BACTEC |  | MIC |  | H37Rv | ≥12.5 µg/mL
O=C(c1ccccc1Br)N1CCC2(CC1)OCCc1sccc12 |  |  | EC50 |  | H37Rv | >100 µM
O=C1c2cccnc2-c2nccc3c2c1nc1cc(Br)ccc13 |  |  | MIC |  | H37Ra | 3.125 µM
COC(=O)c1cc(=O)[nH]c2c1c(=O)n(C)c(=O)n2C | resazurin |  | MIC bound |  | H37Rv | >6.25 µg/mL
c1cc2c(s1)CCOC21CCN(Cc2ccc3c(c2)OCCO3)CC1 |  |  | EC50 |  | H37Rv | 1.25 µM
CC1(C)O[C@H]2[C@@H]([C@@H](O)Cn3cc([N+](=O)[O-])nc3[N+](=O)[O-])OC[C@H]2O1 |  |  | MIC |  | H37Rv | 6.25 µg/mL
CCOc1ccc(OC)cc1NCc1cnc2nc(N)nc(N)c2c1C |  |  | MIC |  | H37Ra | 4 µg/mL
NNC(=O)c1cccnc1 |  |  | MIC |  | H37Rv (drug-susceptible) | 512 µM
Clc1ccc2oc3ccc(Cl)cc3c2c1 | BACTEC |  | inhibition | 12.5 µg/mL | H37Rv | 14%
CCOCCOc1ccc(OCCOCC)c(NCc2cnc3nc(N)nc(N)c3c2C)c1 |  |  | MIC |  | H37Ra | 32 µg/mL
Cc1ccccc1Nc1nnc(-c2ccc(NC(=S)Nc3ccccc3)cc2)s1 |  |  | EC50 |  | H37Rv | >6.25 µg/mL
CC1(C)O[C@H]2[C@@H]([C@H](O)Cn3cnc([N+](=O)[O-])c3)OC[C@H]2O1 |  |  | MIC |  | H37Rv | 6.25 µg/mL
Cn1c(=O)c2c(nc(/N=C/c3ccc([N+](=O)[O-])cc3)n2C)n(C)c1=O | resazurin |  | MIC bound |  | H37Rv | >6.25 µg/mL
COc1ccc(Nc2nnc(-c3ccc(NC(=S)Nc4ccccc4)cc3)s2)cc1 |  |  | inhibition | 6.25 µg/mL | H37Rv | 5%
Oc1cc(O)c2c(c1)Oc1cc(O)cc(O)c1C2 | BACTEC |  | inhibition | 12.5 µg/mL | H37Rv | -9%
COC(=O)/C(=C\c1cccc(C(F)(F)F)c1)Oc1cccc(C(=O)OC)c1O | resazurin |  | EC50 |  |  | 180 µM
S=C(S)N1CCCC1 |  |  | MIC |  | H37Ra | 0.781 µM
COc1ccc(N=Nc2sc(N)nc2-c2ccccc2)cc1 | BACTEC |  | MIC bound |  | H37Rv | >6.25 µg/mL
CC1(C)O[C@H]2[C@@H]([C@H](O)Cn3ccnc3[N+](=O)[O-])OC[C@H]2O1 |  |  | MIC |  | H37Rv | >25 µg/mL
S=C(Nc1ccccc1)Nc1ccc(-c2nnc(Nc3ccccc3)s2)cc1 |  |  | EC50 |  | H37Rv | >6.25 µg/mL
COC(=O)/C(=C\c1cccc(Br)c1)Oc1cccc(C(=O)OC)c1O | resazurin |  | EC50 |  |  | 248 µM
Cc1nn2c(COCc3cn(-c4ccccc4F)nn3)c(-c3ccc(Cl)cc3)nc2s1 | agar |  | MIC |  | H37Rv | 50 µg/mL
COc1ccc(C(N)=S)cc1 |  |  | MIC |  | H37Rv (INH-resistant) | 32 µM
COC(=O)c1ccc2[nH]c3ccccc3c2c1 |  |  | MIC |  | H37Rv | >128 µg/mL
COC(=O)[C@@H](NC(=O)[C@H](C)NC(=O)C1CCCN1C(=O)CNC(=O)[C@H](CO)NC(=O)[C@@H](NC(=O)OCc1ccccc1)C(C)O)C(C)O | BACTEC |  | MIC |  | H37Rv | ≥12.8 µg/mL
CN(C)[C@@H]1C(=O)C(C(N)=O)=C(O)[C@@]2(O)C(=O)C3=C(O)c4c(O)ccc(Cl)c4[C@@H](O)[C@H]3C[C@@H]12 |  |  | MIC |  | H37Ra | 1.56 µM
Clc1ccc(CN2CCC3(CC2)OCCc2sccc23)cc1 |  |  | EC50 |  | H37Rv | 1.25 µM
CC1OC(CC(=O)O)CC2=C1C(=O)c1c(O)cccc1C2=O |  |  | MIC |  | H37Ra | 6.25 µM
C=C[C@]1(C)C[C@@H](OC(=O)CSC(C)(C)CNC(=O)[C@H](N)CC(C)C)[C@]2(C)[C@H](C)CC[C@]3(CC/C(=N\OC)[C@H]32)[C@@H](C)[C@@H]1O | resazurin |  | MIC100 |  | H37Rv | 8.18 µg/mL
Cc1nc([N+](=O)[O-])cn1C[C@H](O)[C@H]1OC[C@H]2OC(C)(C)O[C@@H]12 |  |  | MIC |  | H37Rv | >25 µg/mL
COC(=O)/C(=C/c1ccccc1)Oc1cccc(C(=O)OC)c1O | resazurin |  | EC50 |  |  | 277 µM
Cc1ccn2c(C(=O)OCc3ccccc3)c(C)nc2c1 | broth dilution | Resistant to HRESKO | MIC90 |  | XDR-TB | <0.01 µg/mL
CCn1cc(C(=O)O)c(=O)c2cc(F)c(-n3cccc3)cc21 |  |  | MIC90 |  | 64 strains | 16 µg/mL
CCN(CC)c1ccc2nc3ccc(N=Nc4c(O)ccc5ccccc45)cc3[n+](-c3ccccc3)c2c1.[Cl-] | BACTEC |  | inhibition | 12.5 µg/mL | H37Rv | 99%
CO[C@H]1C([C@H]2Cn3cc([N+](=O)[O-])nc3O2)O[C@@H]2OC(C)(C)O[C@@H]21 |  |  | MIC |  | H37Rv | 25 µg/mL
O=C(c1ccccc1)N1CCC2(CC1)OCCc1sccc12 |  |  | EC50 |  | H37Rv | >100 µM
COc1cc2c(cc1OC)C13CCCC4(OCCO4)C1=CC2(C)O3 | BACTEC |  | inhibition | 12.5 µg/mL | H37Rv | 14%
O=C(NN1C(=O)CSC1c1ccc(O)cc1O)c1ncc2cc(C(F)(F)F)ccc2n1 | visual reading |  | MIC |  | H37Rv | 1.18 µM

MIC bound: limit read from a one-dose screen. Neighbouring rows are from separate reports. MIC50, MIC90 and the like: level of inhibition, or share of isolates inhibited. Percent inhibition refers to the dose given; in toxicity tests it is the harm to the cells. Blank or dashed fields: not listed here.